Laboratory results from article PMC11254100 (Angewandte Chemie (International ed. in English), 2024).

Target: CAHEX:6HIS (Human immunodeficiency virus type 1 group M subtype B, UniProt P12493, A146C/E177C/M317A/W316A)
Details: BLI, positive control

Substance: Lenacapvir
- Kd: 28.6 ± 0.2 nM
